Anti-infective test results gathered from many reports (values: NIAID ChemDB through PubChem).

All rows: target-level tests; species: Hepatitis C virus

Lines come from different laboratories, so protocols vary. ICn is the concentration giving n% inhibition. a–b is a range or a potency band. An empty or dashed field is not shown. Percent inhibition refers to the dose given; in toxicity tests it is the harm to the cells.

O=C(O)c1ccc2c(c1)nc(-c1ccc3nc(C(=O)Nc4ccc(Cl)cc4)ccc3c1)n2C1CCCCC1 ; target: NS5B polymerase ; measure: inhibition ; tested at: 33 µM ; result: 99.45%
O=C(O)c1cnn2c(C3CCCCC3)ccnc12 ; target: RNA-dependent RNA polymerase ; measure: IC50 ; result: >10 µM
C=C[C@H]1C[C@@]1(NC(=O)[C@@H]1C[C@@H](Oc2cc(-c3ccccc3)nc3cc(OC)ccc23)CN1C(=O)[C@@H](NC(=O)OC(C)(C)C)C(C)(C)C)C(=O)NS(C)(=O)=O ; target: NS3/NS4A protease ; measure: IC50 ; strain: BMS ; result: <0.5 µM
O=C(O)c1ccc2c(c1)nc(-c1ccc3nc(-c4cc[nH]c4)ccc3c1)n2C1CCCCC1 ; target: NS5B polymerase ; measure: inhibition ; tested at: 100 µM ; result: 96.37%
CC[C@@H]1C[C@]1(NC(=O)[C@@H]1C[C@@H](Oc2cc(-c3ccccc3)nc3cc(OC)ccc23)CN1C(=O)[C@H](CC1CCCCC1)NC(=O)OC(C)(C)C)C(=O)NS(=O)(=O)C(F)(F)F ; target: NS3/NS4A protease ; measure: IC50 ; strain: BMS ; result: <5 µM
O=C(O)c1ccc2c(c1)nc(-c1ccc3nc(-c4ccc(Cl)c(Cl)c4)ccc3c1)n2C1CCCCC1 ; target: NS5B polymerase ; measure: inhibition ; tested at: 33 µM ; result: 98.94%
C=C[C@@H]1C[C@]1(NC(=O)[C@@H]1C[C@@H](Oc2cc(-c3ccccc3)nc3cc(OC)ccc23)CN1C(=O)[C@@H](NC(=O)OC(C)(C)C)C(C)(C)C)C(=O)NS(=O)(=O)c1cccc(C)c1 ; target: NS3/NS4A protease ; measure: IC50 ; strain: BMS ; result: <0.05 µM
O=C(O)CCC(=O)N[C@H](C(=O)N[C@@H](CCC(=O)O)C(=O)N[C@@H](CCC(=O)O)C(=O)N[C@@H](CS)C(=O)O)C(c1ccccc1)c1ccccc1 ; target: Nonstructural protein 3 NTPase/helicase ; measure: inhibition ; tested at: 16.7 µM ; result: 97%
C=C[C@@H]1C[C@]1(NC(=O)[C@@H]1C[C@@H](Oc2cc(-c3ccccc3)nc3cc(OC)ccc23)CN1C(=O)[C@@H](NC(=O)C(F)(F)F)C(C)(C)C)C(=O)NS(=O)(=O)C1CC1 ; target: NS3/NS4A protease ; measure: IC50 ; strain: BMS ; result: <0.05 µM
Clc1cccc(Oc2cccc(-c3cnc4c(-c5nn[nH]n5)cnn4c3C3CCCCC3)c2)c1 ; target: RNA-dependent RNA polymerase ; measure: IC50 ; result: 1–10 µM
C=C[C@@H]1C[C@]1(NC(=O)[C@@H]1C[C@@H](Oc2cc(-c3ccccc3)nc3cc(OC)ccc23)CN1C(=O)[C@@H](NS(=O)(=O)c1ccc(F)cc1)C(C)(C)C)C(=O)NS(=O)(=O)C1CC1 ; target: NS3/NS4A protease ; measure: IC50 ; strain: BMS ; result: <0.05 µM
COc1cc(F)cc(-c2cc(-c3cccc(Cl)c3)nc3cc(C(=O)O)nn23)c1 ; target: RNA-dependent RNA polymerase ; measure: IC50 ; result: 1–10 µM
CCC(C)[C@H](NC(=O)[C@H](CC(C)C)NC(=O)CCC(=O)O)C(=O)N[C@@H](CC1CCCCC1)C(=O)N[C@@H](CS)C(=O)O ; target: Nonstructural protein 3 NTPase/helicase ; measure: inhibition ; tested at: 16.7 µM ; result: 30%
COc1ccc(-c2ccccc2)c(-c2ccc3cc(-c4nc5cc(C(=O)O)ccc5n4C4CCCCC4)ccc3n2)c1 ; target: NS5B polymerase ; measure: inhibition ; tested at: 33 µM ; result: 101%
NC(=O)CC[C@H](NC(=O)[C@@H](NC(=O)CCC(=O)O)C1CCCCC1)C(=O)N[C@@H](CC1CCCCC1)C(=O)N[C@@H](CS)C(=O)O ; target: Nonstructural protein 3 NTPase/helicase ; measure: inhibition ; tested at: 16.7 µM ; result: 51%
O=C(Nc1ccsc1-c1nc(C(=O)O)c(O)c(=O)[nH]1)OCCCc1ccccc1 ; target: HCV polymerase ; measure: IC50 ; result: <25 µM
C=C[C@@H]1C[C@]1(NC(=O)[C@@H]1C[C@@H](Oc2cc(-c3ccccc3)nc3cc(OC)ccc23)CN1C(=O)[C@@H](NC(=O)OC(C)(C)C)C(C)(C)C)C(=O)NS(=O)(=O)c1ccccc1Cl ; target: NS3/NS4A protease ; measure: IC50 ; strain: BMS ; result: <0.05 µM
C=CC1CC1(NC(=O)[C@@H]1C[C@@H](OC(=O)Nc2ccccc2Oc2ccccc2)CN1C(=O)[C@@H](NC(=O)OC(C)(C)C)C(C)(C)C)C(=O)NS(=O)(=O)C1CC1 ; target: NS3/NS4A protease ; measure: IC50 ; strain: BMS/H77C/J416S ; result: <0.1 µM
O=C(O)c1ccc2c(c1)nc(-c1ccc3nc(-c4cnccn4)ccc3c1)n2C1CCCCC1 ; target: NS5B polymerase ; measure: inhibition ; tested at: 33 µM ; result: 92.7%
CC[C@H](C)[C@H](NC(=O)[C@H](CC(C)C)NC(=O)CCCC(=O)O)C(=O)N[C@@H](CC1CCCCC1)C(=O)NC1(C(=O)O)CC1 ; target: Nonstructural protein 3 NTPase/helicase ; measure: IC50 ; result: >83.5 µM
C=CC1CC1(NC(=O)[C@@H]1C[C@@H](OC(=O)NCc2cccc(F)c2)CN1C(=O)[C@@H](NC(=O)OC(C)(C)C)C(C)(C)C)C(=O)NS(=O)(=O)C1CC1 ; target: NS3/NS4A protease ; measure: IC50 ; strain: BMS/H77C/J416S ; result: 0.1–1 µM
C=C[C@@H]1C[C@]1(NC(=O)[C@@H]1C[C@@H](Oc2cc(-c3ccccc3)nc3cc(OC)ccc23)CN1C(=O)[C@@H](NC(=O)CC(C)(C)C)C(C)(C)C)C(=O)NS(=O)(=O)C1CC1 ; target: NS3/NS4A protease ; measure: IC50 ; strain: BMS ; result: <0.05 µM
C=CC1CC1(NC(=O)[C@@H]1C[C@@H](OC(=O)Nc2sc3c(c2C(=O)OCC)CCCC3)CN1C(=O)[C@@H](NC(=O)OC(C)(C)C)C(C)(C)C)C(=O)NS(=O)(=O)C1CC1 ; target: NS3/NS4A protease ; measure: IC50 ; strain: BMS/H77C/J416S ; result: 0.1–1 µM
FC(F)(F)Oc1cccc(Oc2ccc(-c3cnc4c(-c5nn[nH]n5)cnn4c3C3CCCCC3)cc2)c1 ; target: RNA-dependent RNA polymerase ; measure: IC50 ; result: 1–10 µM
C=C[C@@H]1C[C@]1(NC(=O)[C@@H]1C[C@@H](Oc2cc(-c3ccccc3)nc3cc(OC)ccc23)CN1C(=O)[C@H](CC(C)C)NC(=O)OC(C)(C)C)C(=O)NS(=O)(=O)C1CC1 ; target: NS3/NS4A protease ; measure: IC50 ; strain: BMS ; result: <0.05 µM
CC(=O)N[C@H](C(=O)N[C@@H](CCC(=O)O)C(=O)N[C@@H](CCC(=O)O)C(=O)NC1(C(=O)O)CC1)C1CCCCC1 ; target: Nonstructural protein 3 NTPase/helicase ; measure: IC50 ; result: >83.5 µM
CC(C)C[C@H](NC(=O)c1cnn2c(C3CCCCC3)c(-c3ccc(F)cc3)cnc12)C(=O)O ; target: RNA-dependent RNA polymerase ; measure: IC50 ; result: 1–10 µM
O=C(O)CCCC(=O)N[C@@H](CCC(=O)O)C(=O)N[C@@H](CCC(=O)O)C(=O)NC1(C(=O)O)CC1 ; target: Nonstructural protein 3 NTPase/helicase ; measure: inhibition ; tested at: 83.5 µM ; result: 17%
C=CC1CC1(NC(=O)[C@@H]1C[C@@H](OC(=O)Nc2ccccc2N2CCOCC2)CN1C(=O)[C@@H](NC(=O)OC(C)(C)C)C(C)(C)C)C(=O)NS(=O)(=O)C1CC1 ; target: NS3/NS4A protease ; measure: IC50 ; strain: BMS/H77C/J416S ; result: <0.1 µM
O=C(NCc1ccc(Cl)cc1)Nc1ccsc1-c1nc(C(=O)O)c(O)c(=O)[nH]1 ; target: HCV polymerase ; measure: IC50 ; result: <25 µM
C=CC1CC1(NC(=O)[C@@H]1C[C@@H](OC(=O)N[C@H](C(=O)OC)[C@@H](C)CC)CN1C(=O)[C@@H](NC(=O)OC(C)(C)C)C(C)(C)C)C(=O)O ; target: NS3/NS4A protease ; measure: IC50 ; strain: BMS/H77C/J416S ; result: 1–10 µM
COc1cc(O[C@@H]2C[C@@H](C(=O)NC3(C(=O)NS(=O)(=O)C4CC4)CC34CCC4)N(C(=O)[C@@H](NC(=O)OC(C)(C)C)C(C)(C)C)C2)c2ccc(-c3ccccc3)cc2n1 ; target: NS3/NS4A protease ; measure: IC50 ; strain: BMS ; result: <0.5 µM
Cc1cc(-c2ccc3cc(-c4nc5cc(C(=O)O)ccc5n4C4CCCCC4)ccc3n2)c(O)c([N+](=O)[O-])c1 ; target: NS5B polymerase ; measure: inhibition ; tested at: 33 µM ; result: 104%
O=C(Nc1ocnc1-c1nc(C(=O)O)c(O)c(=O)[nH]1)c1ccccc1 ; target: HCV polymerase ; measure: IC50 ; result: <100 µM
C=CC1CC1(NC(=O)[C@@H]1C[C@@H](OC(=O)N2CCc3ccccc3C2)CN1C(=O)[C@@H](NCC1CC1)C(C)(C)C)C(=O)NS(=O)(=O)C1CC1 ; target: NS3/NS4A protease ; measure: IC50 ; strain: BMS/H77C/J416S ; result: <0.1 µM
O=C(O)c1ccc2c(c1)nc(-c1ccc3[nH]c(-c4ccccc4)cc(=O)c3c1)n2C1CCCCC1 ; target: NS5B polymerase ; measure: inhibition ; tested at: 100 µM ; result: 83.79%
COc1ccc(Oc2ccc(-c3cnc4c(-c5nn[nH]n5)cnn4c3C3CCCCC3)cc2)cc1F ; target: RNA-dependent RNA polymerase ; measure: IC50 ; result: <1 µM
O=C(Nc1ccsc1-c1nc(C(=O)O)c(O)c(=O)[nH]1)OCCc1ccccc1 ; target: HCV polymerase ; measure: IC50 ; result: <25 µM
O=C(O)CCC(=O)N[C@H](C(=O)N[C@@H](CCC(=O)O)C(=O)N[C@@H](Cc1ccc2ccccc2c1)C(=O)N[C@@H](CS)C(=O)O)C1CCCCC1 ; target: Nonstructural protein 3 NTPase/helicase ; measure: inhibition ; tested at: 16.7 µM ; result: 90%
COc1ccc(-c2ccc(-c3nc4cc(C(=O)O)[nH]n4c(=O)c3C3CCCCC3)cc2)cc1F ; target: RNA-dependent RNA polymerase ; measure: IC50 ; result: 1–10 µM
O=C(Cc1cccs1)Nc1ccsc1-c1nc(C(=O)O)c(O)c(=O)[nH]1 ; target: HCV polymerase ; measure: IC50 ; result: <25 µM
O=C(O)c1ccc2c(c1)nc(-c1ccc3nc(CCn4cccn4)ccc3c1)n2C1CCCCC1 ; target: NS5B polymerase ; measure: inhibition ; tested at: 100 µM ; result: 97.06%
O=C(Nc1ccsc1-c1nc(C(=O)O)c(O)c(=O)[nH]1)OC1Cc2ccccc2C1 ; target: HCV polymerase ; measure: IC50 ; result: <25 µM
O=C(O)CCCC(=O)N[C@@H](CCC(=O)O)C(=O)N[C@@H](CCC(=O)O)C(=O)N[C@@H](CS)C(=O)O ; target: Nonstructural protein 3 NTPase/helicase ; measure: inhibition ; tested at: 16.7 µM ; result: 29%
O=C(NCc1cccc(COCc2ccccc2)c1)Nc1ccsc1-c1nc(C(=O)O)c(O)c(=O)[nH]1 ; target: HCV polymerase ; measure: IC50 ; result: <25 µM
O=C(O)c1cc2nc(-c3ccc(OCc4ccccc4)cc3)cc(-c3cccc(F)c3)n2n1 ; target: RNA-dependent RNA polymerase ; measure: IC50 ; result: >10 µM
CC(C)C[C@H](NC(=O)[C@H](CCC(=O)O)NC(=O)[C@@H](NC(=O)CCC(=O)O)C1CCCCC1)C(=O)NC1(C(=O)O)CC1 ; target: Nonstructural protein 3 NTPase/helicase ; measure: inhibition ; tested at: 167 µM ; result: 17%

A second listing of 6 rows from above:

| structure | target | measure | strain | tested at | result |
|---|---|---|---|---|---|
| CC(C)C[C@H](NC(=O)c1cnn2c(C3CCCCC3)c(-c3ccc(F)cc3)cnc12)C(=O)O | RNA-dependent RNA polymerase | IC50 | - | - | 1–10 µM |
| O=C(O)c1ccc2c(c1)nc(-c1ccc3nc(-c4cc[nH]c4)ccc3c1)n2C1CCCCC1 | NS5B polymerase | inhibition | - | 100 µM | 96.37% |
| O=C(Nc1ocnc1-c1nc(C(=O)O)c(O)c(=O)[nH]1)c1ccccc1 | HCV polymerase | IC50 | - | - | <100 µM |
| CC[C@H](C)[C@H](NC(=O)[C@H](CC(C)C)NC(=O)CCCC(=O)O)C(=O)N[C@@H](CC1CCCCC1)C(=O)NC1(C(=O)O)CC1 | Nonstructural protein 3 NTPase/helicase | IC50 | - | - | >83.5 µM |
| C=CC1CC1(NC(=O)[C@@H]1C[C@@H](OC(=O)Nc2ccccc2Oc2ccccc2)CN1C(=O)[C@@H](NC(=O)OC(C)(C)C)C(C)(C)C)C(=O)NS(=O)(=O)C1CC1 | NS3/NS4A protease | IC50 | BMS/H77C/J416S | - | <0.1 µM |
| O=C(O)c1ccc2c(c1)nc(-c1ccc3nc(-c4ccc(Cl)c(Cl)c4)ccc3c1)n2C1CCCCC1 | NS5B polymerase | inhibition | - | 33 µM | 98.94% |